{"source": "PubChem BioAssay AID1259414 (Drosophila RNAi Screening Center, 2018)", "assay": "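Fly genes that alter Wolbachia amount inside host cells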 (primary screen)", "cell system": "Drosophila JW18 cells infected with Wolbachia", "knock-down reagent": "long dsRNA against Drosophila genes, 0.25 µg dsRNA per well of a 384-well plate", "time to read-out": "5 days", "challenge": "cells persistently infected with Wolbachia before knock-down; no added drug", "detection": "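Automated imaging of bacterial rRNA staining divided by host cell count, reported as plate-normalised robust z-score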", "reading the numbers": "Wolbachia per cell robust z: higher = more Wolbachia per host cell than the plate typical", "active means": "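Active if absolute robust z reaches 1.5 in two or more of three replicates, leaving out multi- or no-target dsRNAs, genes unexpressed in JW18 and A1 wells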", "note": "In all, the deposit lists about 24,000 reagents; this is an unselected part of those that have a named target and a result. Over the whole deposit, about 1,210 (5%) were called active. 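Inactive calls also include excluded dsRNAs with several or no targets, genes unexpressed in JW18, and well A1, regardless of score.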 Unmarked entries are inactive."}
{"target":"dcma","DRSC id":"DRSC00246","Wolbachia per cell robust z, rep 1":0.673,"Wolbachia per cell robust z, rep 2":2.61,"Wolbachia per cell robust z, rep 3":0.242}
{"target":"dcma","DRSC id":"DRSC00338","Wolbachia per cell robust z, rep 1":0.258,"Wolbachia per cell robust z, rep 2":-0.456,"Wolbachia per cell robust z, rep 3":-0.0809}
{"target":"gcm","DRSC id":"DRSC03536","Wolbachia per cell robust z, rep 1":-2.41,"Wolbachia per cell robust z, rep 2":-0.175,"Wolbachia per cell robust z, rep 3":-3.57}
{"target":"CG43072","DRSC id":"DRSC11688","Wolbachia per cell robust z, rep 1":0.603,"Wolbachia per cell robust z, rep 2":1.06,"Wolbachia per cell robust z, rep 3":0.376}
{"target":"CG15611","DRSC id":"DRSC06563","Wolbachia per cell robust z, rep 1":0.0977,"Wolbachia per cell robust z, rep 2":-1.15,"Wolbachia per cell robust z, rep 3":1.46}
{"target":"CG15611","DRSC id":"DRSC06564","Wolbachia per cell robust z, rep 1":0.227,"Wolbachia per cell robust z, rep 2":-1.22,"Wolbachia per cell robust z, rep 3":0.781}
{"target":"CG12268","DRSC id":"DRSC14491","Wolbachia per cell robust z, rep 1":0.393,"Wolbachia per cell robust z, rep 2":0.0873,"Wolbachia per cell robust z, rep 3":-0.75}
{"target":"CG12268","DRSC id":"DRSC28755","Wolbachia per cell robust z, rep 1":-0.162,"Wolbachia per cell robust z, rep 2":-1.96,"Wolbachia per cell robust z, rep 3":0.0966}
{"target":"Xpd","DRSC id":"DRSC04666","Wolbachia per cell robust z, rep 1":1.13,"Wolbachia per cell robust z, rep 2":-0.0297,"Wolbachia per cell robust z, rep 3":-3.33}
{"target":"Xpd","DRSC id":"DRSC27757","Wolbachia per cell robust z, rep 1":0.476,"Wolbachia per cell robust z, rep 2":-0.426,"Wolbachia per cell robust z, rep 3":-0.397}
{"target":"XNP","DRSC id":"DRSC15594","Wolbachia per cell robust z, rep 1":0.397,"Wolbachia per cell robust z, rep 2":0.716,"Wolbachia per cell robust z, rep 3":0.697}
{"target":"XNP","DRSC id":"DRSC27285","Wolbachia per cell robust z, rep 1":-0.64,"Wolbachia per cell robust z, rep 2":-0.0727,"Wolbachia per cell robust z, rep 3":-0.0516}

Laid out differently: entries from further up.
dcma [DRSC00338]: Wolbachia per cell robust z, rep 1 = 0.258; Wolbachia per cell robust z, rep 2 = -0.456; Wolbachia per cell robust z, rep 3 = -0.0809
gcm [DRSC03536]: Wolbachia per cell robust z, rep 1 = -2.41; Wolbachia per cell robust z, rep 2 = -0.175; Wolbachia per cell robust z, rep 3 = -3.57
